Pooled drug test results. Numbers come from NIAID ChemDB, via PubChem.

Common to all: tests in culture; agent: Streptococcus pneumoniae; endpoint: MIC

Neighbouring rows are from separate reports.

| compound | strain or isolate | result |
|---|---|---|
| CC[C@H]1OC(=O)[C@H](C)C(=O)[C@H](C)[C@@H](O[C@@H]2O[C@H](C)C[C@H](N(C)C)[C@H]2O)[C@@]2(C)C[C@@H](C)C(=NC(C)=O)[C@H](C)[C@@H](OC/C(=N\OCCCc3ccccc3)CO2)[C@]1(C)O | 700906 (erythromycin-resistant-ERM) | 0.5 µg/mL |
| CC[C@H]1OC(=O)[C@H](C)C(=O)[C@H](C)[C@@H](O[C@@H]2O[C@H](C)C[C@H](N(C)C)[C@H]2O)[C@@]2(C)C[C@@H](C)C(=NC(C)=O)[C@H](C)C(OC/C(=C\c3ccccc3)CO2)[C@]1(C)O | 49619 (erythromycin-susceptible) | <0.06 µg/mL |
| CC[C@H]1OC(=O)[C@H](C)C(=O)[C@H](C)[C@@H](O[C@@H]2O[C@H](C)C[C@H](N(C)C)[C@H]2O)[C@](C)(OC)C[C@@H](C)C(=O)[C@H](C)[C@H]2N(CCCCn3cnc(-c4cccnc4)c3)C(=O)O[C@]12C | 49619 (erythromycin A-susceptible) | 0.015 µg/mL |
| CC[C@H]1OC(=O)[C@H](C)C(=O)[C@H](C)[C@@H](O[C@@H]2O[C@H](C)C[C@H](N(C)C)[C@H]2O)[C@@]2(C)C[C@@H](C)C(=NC(C)=O)[C@H](C)[C@@H](OC/C(=N\OCC#Cc3ccc(N)nc3)CO2)[C@]1(C)O | 49619 (erythromycin-susceptible) | <0.06 µg/mL |
| C[C@H]1NCc2cc(-c3ccc4c(=O)c(C(=O)O)cn(C5CC5)c4c3OC(F)F)ccc21 | R6 | 0.03 µg/mL |
| CC[C@H]1OC(=O)[C@H](C)C(=O)[C@H](C)[C@@H](O[C@@H]2O[C@H](C)C[C@H](N(C)C)[C@H]2O)[C@@]2(C)C[C@@H](C)C(=NC(C)=O)[C@H](C)[C@@H](OC/C(=N\Oc3ccccc3)CO2)[C@]1(C)O | 49619 (erythromycin-susceptible) | <0.06 µg/mL |
| NC1CCN(c2c(F)cc3c(=O)c(C(=O)O)cn(C4CC4)c3c2Cl)C1 | R6 | 0.06 µg/mL |
| CC[C@H]1OC(=O)[C@H](C)C(=O)[C@H](C)[C@@H](O[C@@H]2O[C@H](C)C[C@H](N(C)C)[C@H]2O)[C@@]2(C)C[C@@H](C)C(=NC(C)=O)[C@H](C)C(OC/C(=C\C=C\c3ccc(OC)cc3)CO2)[C@]1(C)O | 7701 (erythromycin-resistant-MEF) | 0.5 µg/mL |
| CC[C@H]1OC(=O)[C@@](C)(F)C(=O)[C@H](C)[C@@H](O[C@@H]2O[C@H](C)C[C@H](N(C)C)[C@H]2O)[C@@]2(C)C[C@@H](C)C(=NC(C)=O)[C@H](C)[C@@H](OC/C(=N\OCC#Cc3cccc(N)n3)CO2)[C@]1(C)O | 700906 (erythromycin A-resistant) | 0.5 µg/mL |
| COc1c(N2C[C@@H]3CCCN[C@@H]3C2)ccc2c(=O)c(C(=O)O)cn(C3CC3)c12 | R6-C11 | 1 µg/mL |
| CC[C@H]1OC(=O)[C@H](C)C(=O)[C@H](C)[C@@H](O[C@@H]2O[C@H](C)C[C@H](N(C)C)[C@H]2O)[C@@]2(C)C[C@@H](C)C(=NC(C)=O)[C@H](C)[C@@H](OC/C(=N\OCc3cccc(N)n3)CO2)[C@]1(C)O | 7701 (erythromycin-resistant-MEF) | 0.25 µg/mL |
| CC[C@H]1OC(=O)[C@H](C)C(=O)[C@H](C)[C@@H](O[C@@H]2O[C@H](C)C[C@H](N(C)C)[C@H]2O)[C@@]2(C)C[C@@H](C)C(=NC(C)=O)[C@H](C)C(OC/C(=C\C#Cc3cccnc3)CO2)[C@]1(C)O | 7701 (erythromycin-resistant-MEF) | 0.25 µg/mL |
| CC[C@H]1OC(=O)[C@@](C)(F)C(=O)[C@H](C)[C@@H](O[C@@H]2O[C@H](C)C[C@H](N(C)C)[C@H]2O)[C@@]2(C)C[C@@H](C)C(=NC(C)=O)[C@H](C)[C@@H](OC/C(=N\OCc3ccc(C(N)=O)s3)CO2)[C@]1(C)O | 700906 (erythromycin A-resistant) | <0.06 µg/mL |
| CC[C@H]1OC(=O)[C@H](C)C(=O)[C@H](C)[C@@H](O[C@@H]2O[C@H](C)C[C@H](N(C)C)[C@H]2O)[C@@]2(C)C[C@@H](C)C(=NC(C)=O)[C@H](C)C(OC/C(=N\OCc3ccccc3)CO2)[C@]1(C)O | 700906 (erythromycin-resistant-ERM) | 0.5 µg/mL |
| CCC(=O)N=C1[C@H](C)C[C@@]2(C)OC/C(=C/C=C/c3ccccc3)COC([C@H]1C)[C@](C)(O)[C@@H](CC)OC(=O)[C@H](C)C(=O)[C@H](C)[C@H]2O[C@@H]1O[C@H](C)C[C@H](N(C)C)[C@H]1O | 700906 (erythromycin-resistant-ERM) | 8 µg/mL |
| CC[C@H]1OC(=O)[C@@](C)(F)C(=O)[C@H](C)[C@@H](O[C@@H]2O[C@H](C)C[C@H](N(C)C)[C@H]2O)[C@@]2(C)C[C@@H](C)C(=NC(C)=O)[C@H](C)[C@@H](OC/C(=N\OCc3ccc(-n4cccn4)nc3)CO2)[C@]1(C)O | 700906 (erythromycin A-resistant) | <0.06 µg/mL |
| CN1CCN(c2cc3c(cc2F)c(=O)c(C(=O)O)cn3C2CC2)CC1 | R6-G8 | 1 µg/mL |
| CC[C@H]1OC(=O)[C@H](C)C(=O)[C@H](C)[C@@H](O[C@@H]2O[C@H](C)C[C@H](N(C)C)[C@H]2O)[C@@]2(C)C[C@@H](C)C(=NC(C)=O)[C@H](C)C(OC/C(=C\C=C\c3ccc(F)cc3)CO2)[C@]1(C)O | 49619 (erythromycin-susceptible) | <0.06 µg/mL |

Repeating the first 2 entries:

compound	strain or isolate	result
CC[C@H]1OC(=O)[C@H](C)C(=O)[C@H](C)[C@@H](O[C@@H]2O[C@H](C)C[C@H](N(C)C)[C@H]2O)[C@@]2(C)C[C@@H](C)C(=NC(C)=O)[C@H](C)[C@@H](OC/C(=N\OCCCc3ccccc3)CO2)[C@]1(C)O	700906 (erythromycin-resistant-ERM)	0.5 µg/mL
CC[C@H]1OC(=O)[C@H](C)C(=O)[C@H](C)[C@@H](O[C@@H]2O[C@H](C)C[C@H](N(C)C)[C@H]2O)[C@@]2(C)C[C@@H](C)C(=NC(C)=O)[C@H](C)C(OC/C(=C\c3ccccc3)CO2)[C@]1(C)O	49619 (erythromycin-susceptible)	<0.06 µg/mL